According to patent US6417178B1, “Amyloid binding nitrogen-linked compounds for the antemortem diagnosis of alzheimer's disease, in vivo imaging and prevention of amyloid deposits” (University of Pittsburgh, priority 1994, dated 2002):

System: amyloid deposits in AD brain sections
Assay: Histologic staining of amyloid in AD brain sections
Set-up: species or system human
Conditions: Stokes and Trickey or Puchtler method, FITC filters

O=C(O)c1cc(N=Nc2ccc(-c3ccc(N=Nc4ccc(O)c(C(=O)O)c4)cc3)cc2)ccc1O [Chrysamine G, 4,4′-bis(3-carboxy-4-hydroxyphenylazo)-biphenyl]
staining of amyloid deposits: two neuritic plaques stained; also recorded: readily demonstrate the same amyloid-laden vessel

Nc1c(/N=N/c2ccc(-c3ccc(/N=N/c4cc(S(=O)(=O)O)c5ccccc5c4N)cc3)cc2)cc(S(=O)(=O)O)c2ccccc12 [Congo red, reference compound]
staining of amyloid deposits: readily demonstrate the same amyloid-laden vessel

Entries after “also recorded” stand apart in the source; their conditions may differ.
